Measured values from several laboratories, pooled; numbers as filed in NIAID ChemDB.

All rows: tests in culture; organism: HIV-1; read by: luciferase; read-out: EC50

Conditions beyond the fields shown may differ between rows. ECn: concentration that inhibits the pathogen or its effect by n%. Two numbers with a dash give a range or band.

{"SMILES": "N=C(c1ccccc1)N1CCN(C(=O)C(=O)c2c[nH]c3cccc(F)c23)CC1", "cell line": "HeLa(CD4+) + HeLa", "strain": "Luciferase reporter virus", "result": "<0.5 µM"}
{"SMILES": "Cc1cc(C#N)cc(C)c1Oc1nc(Nc2ccc(C#N)cc2)nc2ccsc12", "cell line": "HeLa", "strain": "Y181C", "result": "0.01–0.1 µM"}
{"SMILES": "Nc1cccc(C(=O)N2CCN(C(=O)C(=O)c3c[nH]c4cccc(Cl)c34)CC2)c1", "cell line": "HeLa + HELA CD4+/CCR5", "result": "<10 µM"}
{"SMILES": "Cc1cc(C)c(Oc2nc(Nc3ccc(C#N)cc3)nc3sc4c(c23)CCCC4)c(C)c1", "cell line": "HeLa", "strain": "Y181C", "result": ">0.1 µM"}
{"SMILES": "COc1cnc(-c2cnccn2)c2[nH]cc(C(=O)C(=O)N3CCC(=C(c4ccccc4)c4nnc(C)o4)CC3)c12", "cell line": "HeLa", "result": "<1 µM"}
{"SMILES": "COc1ccc(N(C)C(=O)[C@H](Cc2ccccc2)NC(=O)CNC(=O)NCC(=O)N[C@@H](Cc2ccccc2)C(=O)N(C)c2ccc(OC)cc2)cc1", "cell line": "MT-2", "strain": "NL4-3", "result": "1.42 µM"}
{"SMILES": "COc1cnc(-c2cnccn2)c2[nH]cc(C(=O)C(=O)N3CCN(C(=N)c4ccccc4)C[C@H]3C)c12", "cell line": "HeLa(CD4+) + HeLa", "strain": "Luciferase reporter virus", "result": "<0.5 µM"}
{"SMILES": "COc1ccc(N(C)C(=O)[C@H](Cc2ccccc2)NC(=O)CN(CCO)CC(=O)N[C@@H](Cc2ccccc2)C(=O)N(C)c2ccc(OC)cc2)cc1", "cell line": "MT-2", "strain": "NL4-3", "result": "2.49 µM"}
{"SMILES": "C[C@@H]1CCO[C@H]2Cn3cc(C(=O)NCc4ccc(F)cc4F)c(=O)c(O)c3C(=O)N12", "cell line": "HOS", "mutations": "AGC (GGGAGC)", "result": "<0.003 µM"}
{"SMILES": "CCc1nnc(C(=C2CCN(C(=O)C(=O)c3c[nH]c4c(-n5ccnn5)ncc(OC)c34)CC2)c2ccccc2)o1", "cell line": "HeLa", "result": "<1 µM"}
{"SMILES": "CC(C)N=C(c1ccccc1)N1CCN(C(=O)C(=O)c2c[nH]c3c(-n4ccnn4)ncc(F)c23)CC1", "cell line": "HeLa(CD4+) + HeLa", "strain": "Luciferase reporter virus", "result": "<0.5 µM"}
{"SMILES": "COc1cc2c(cc1Cc1cccc(Cl)c1F)c(=O)c(C(=O)O)cn2[C@H](CO)C(C)C", "cell line": "HOS", "result": "<0.004 µM"}
{"SMILES": "Cc1cc(S(N)(=O)=O)ccc1NC(=O)COc1ccc(Cl)cc1C(=O)c1cc(F)cc(C(F)(F)F)c1", "cell line": "HELA MAGI", "mutations": "RT-K103N P225H", "strain": "IIIB", "result": "0.0015 µM"}
{"SMILES": "O=C(C(=O)N1CCN(C(=O)c2ccccc2)CC1)c1c[nH]c2cc(C(F)(F)F)ccc12", "cell line": "HeLa + HELA CD4+/CCR5", "result": ">10 µM"}
{"SMILES": "COc1ccnc2[nH]cc(C(=O)C(=O)N3C4CC3CN(C(=O)c3ccccc3)C4)c12", "cell line": "TZM-bl", "strain": "ZM214", "result": "153 µM"}
{"SMILES": "C[C@@H]1CN(C(=N)c2ccccc2)CCN1C(=O)C(=O)c1c[nH]c2c(-n3ccnn3)ncc(F)c12", "cell line": "HeLa(CD4+) + HeLa", "strain": "Luciferase reporter virus", "result": "<0.5 µM"}
{"SMILES": "Cc1ccc(-n2c(C)nnc2SCC(=O)Nc2ccc(C)cc2Cl)cc1", "cell line": "HeLa + HeLa-JC53", "mutations": "RT-K103N Y181C", "strain": "NL4-3", "result": "0.17 µM"}
{"SMILES": "CC[C@]1(CO)O[C@@H](n2cnc3c(N)ncnc32)C[C@@H]1O", "cell line": "HOS", "mutations": "M184V (delta)Env", "result": ">10 µM"}
{"SMILES": "COc1ncc(OC)c2c(C(=O)C(=O)N3CCC(=C(c4ccccc4)c4ccccc4)CC3)c[nH]c12", "cell line": "HeLa", "result": "<1 µM"}
{"SMILES": "Nc1c(C(=O)NCc2ccc(F)cc2F)c(=O)n(O)c2ncc(CCS(=O)(=O)c3ccccc3)cc12", "cell line": "HOS", "mutations": "AGT (GGGAGT)", "result": "<0.001 µM"}
{"SMILES": "COCc1nnc(SCC(=O)Nc2ccc(C)cc2Br)n1-c1ccc(C)cc1", "cell line": "HeLa + HeLa-JC53", "mutations": "RT-K103N Y181C", "strain": "NL4-3", "result": ">10 µM"}
{"SMILES": "CC(=O)Oc1ccc(C(=O)N2CCN(C(=O)C(=O)c3c[nH]c4cccc(F)c34)CC2)cc1", "cell line": "HeLa + HELA CD4+/CCR5", "result": "<10 µM"}
{"SMILES": "CCN(C(=O)[C@H](Cc1cc(F)cc(F)c1)NC(=O)CN1c2ccccc2N(CC(=O)N[C@@H](Cc2cc(F)cc(F)c2)C(=O)N(CC)c2ccc(OC(F)F)cc2)S1(=O)=O)c1ccc(OC(F)F)cc1", "cell line": "MT-2", "strain": "NL4-3", "result": "0.09 µM"}
{"SMILES": "C[C@H]1CN(C(=O)c2ccccc2)CCN1C(=O)C(=O)c1c[nH]c2c([N+](=O)[O-])cccc12", "cell line": "HeLa + HELA CD4+/CCR5", "result": "<10 µM"}
{"SMILES": "Cc1ccc2c(C)ccc(-n3c(C)nnc3SCC(=O)Nc3ccccc3Br)c2c1", "cell line": "HeLa + HeLa-JC53", "mutations": "RT-Y188L", "strain": "NL4-3", "result": "0.12 µM"}
{"SMILES": "COc1ccc(N(C)C(=O)[C@H](Cc2cc(F)cc(F)c2)NC(=O)c2ccc(F)c(C(=O)N[C@@H](Cc3cc(F)cc(F)c3)C(=O)N(C)c3ccc(OC)c(F)c3)c2)cc1F", "cell line": "MT-2", "strain": "NL4-3", "result": "0.18 µM"}
{"SMILES": "Cc1ccnc2c1NC(=O)c1cccnc1N2C1CC1", "cell line": "HEK293T", "mutations": "N348I", "strain": "94ug114.1.6", "result": "584.9 nM"}
{"SMILES": "COc1cnc(Cl)c2[nH]cc(C(=O)C(=O)N3CCC(=C(F)c4ccccc4)CC3)c12", "cell line": "HeLa", "result": "<1 µM"}
{"SMILES": "COc1ccc(N(C)C(=O)[C@H](Cc2cc(F)cc(F)c2)NC(=O)c2cc(Cl)c(Cl)cc2C(=O)N[C@@H](Cc2cc(F)cc(F)c2)C(=O)N(C)c2ccc(OC)cc2)cc1", "cell line": "MT-2", "strain": "NL4-3", "result": "0.08 µM"}
{"SMILES": "COc1ccnc2[nH]cc(C(=O)C(=O)N3CCN(C(=O)c4ccccc4)C[C@H]3C)c12", "cell line": "TZM-bl", "strain": "PVO", "result": "0.002 µM"}
{"SMILES": "CC(=O)OCCCc1cnc2c(c1)c(N)c(C(=O)NCc1ccc(F)cc1F)c(=O)n2O", "cell line": "HOS", "result": "<0.004 µM"}
{"SMILES": "CN(C)CCCN=C(c1ccccc1)N1CCN(C(=O)C(=O)c2c[nH]c3c(-n4ccnn4)ncc(F)c23)CC1", "cell line": "HeLa(CD4+) + HeLa", "strain": "Luciferase reporter virus", "result": "<0.5 µM"}
{"SMILES": "O=C(C(=O)N1CCN(C(=O)c2cccnc2)CC1)c1c[nH]c2cccc(F)c12", "cell line": "HeLa + HELA CD4+/CCR5", "result": "<10 µM"}
{"SMILES": "Cc1cc(C#N)cc(C)c1Nc1nc(Nc2ccc(C#N)cc2)nc2c(C)csc12", "cell line": "HeLa", "strain": "Y181C", "result": "<0.01 µM"}
{"SMILES": "C[C@@H]1CCO[C@H]2Cn3cc(C(=O)NCc4ccc(F)cc4F)c(=O)c(O)c3C(=O)N12", "cell line": "TZM-bl", "mutations": "R263K", "strain": "NL4-3", "result": "0.0022 µM"}
{"SMILES": "COc1ccc(N(C)C(=O)[C@H](Cc2ccccc2)NC(=O)Cn2c(=O)n(CC(=O)N[C@@H](Cc3ccccc3)C(=O)N(C)c3ccc(OC)cc3)c3cc([N+](=O)[O-])ccc32)cc1", "cell line": "MT-2", "strain": "NL4-3", "result": "0.09 µM"}
{"SMILES": "Cc1ccc(-n2c(C)nnc2SCC(=O)Nc2ccccc2Br)c2ccccc12", "cell line": "HeLa + HeLa-JC53", "mutations": "RT-K103N Y181C", "strain": "NL4-3", "result": "0.014 µM"}
{"SMILES": "COc1ncc(OC)c2c(C(=O)C(=O)N3CCC(=C(C#Cc4ccccc4)c4ccccc4)CC3)c[nH]c12", "cell line": "HeLa", "result": "<1 µM"}
{"SMILES": "Cc1ccc(-n2c(C)nnc2SCC(=O)Nc2ccc(Cl)cc2)cc1", "cell line": "HeLa + HeLa-JC53", "mutations": "RT-K103N Y181C", "strain": "NL4-3", "result": ">10 µM"}
{"SMILES": "COc1ccc(N(C)C(=O)[C@H](Cc2ccccc2)NC(=O)OCCOC(=O)N[C@@H](Cc2ccccc2)C(=O)N(C)c2ccc(OC)cc2)cc1", "cell line": "MT-2", "strain": "NL4-3", "result": "2.6 µM"}
{"SMILES": "NS(=O)(=O)c1ccc(NC(=O)CSc2nnc(C(F)(F)F)n2-c2cccc3cccnc23)c(Cl)c1", "cell line": "HeLa + HeLa-JC53", "mutations": "RT-Y188L", "strain": "NL4-3", "result": "0.18 µM"}
{"SMILES": "C#C[C@@]1(COP(=O)(O)OP(=O)(O)OP(=O)(O)O)C=C[C@H](n2cc(C)c(=O)[nH]c2=O)O1", "cell line": "TZM-bl", "mutations": "P119S/T165A", "strain": "NL4-3", "result": "0.34 µM"}
{"SMILES": "COc1ccc(N(C)C(=O)[C@H](Cc2ccccc2)NC(=O)c2cccc(C(=O)N[C@@H](Cc3ccccc3)C(=O)N(C)c3ccc(OC)cc3)n2)cc1", "cell line": "MT-2", "strain": "NL4-3", "result": "0.95 µM"}
{"SMILES": "Cc1cc(C)c(Oc2nc(Nc3ccc(C#N)cc3)nc3ccsc23)c(C)c1", "cell line": "HeLa", "strain": "Y181C", "result": "<0.01 µM"}
{"SMILES": "COc1cccc2c(C(=O)C(=O)N3CCN(C(=O)c4ccccc4)CC3)c[nH]c12", "cell line": "HeLa + HELA CD4+/CCR5", "result": "<10 µM"}
{"SMILES": "COc1ccc(N(C)C(=O)[C@H](Cc2ccccc2)NC(=O)c2cc(C(=O)N[C@@H](Cc3ccccc3)C(=O)N(C)c3ccc(OC)cc3)cc(C(C)(C)C)c2)cc1", "cell line": "MT-2", "strain": "NL4-3", "result": "0.15 µM"}
{"SMILES": "Cc1ccc(NC(=O)CSc2nnc(C)n2-c2ccc(C(F)(F)F)cc2)c(Cl)c1", "cell line": "HeLa + HeLa-JC53", "mutations": "RT-K103N Y181C", "strain": "NL4-3", "result": "0.23 µM"}